For part of these data: For at least one entry, the source does not settle the construct or the ends of the probe. For part of these data: At least one verdict rests on a figure or table, not on a statement of the authors.
Key:
[1] = target: His-OpaR (Vibrio parahaemolyticus RIMD2210633) (UniProt Q79YV4); experiment: EMSA; settings: 10 mM Tris-HCl pH 7.5, 50 mM NaCl, 1 mM MgCl2, 0.5 mM EDTA, 0.5 mM DTT, 100 ng DNA in 10 ul, room temperature 20 min, recombinant protein, residues 1-204, protein details: 6xHis (pET28a), probe letters rebuilt from the primers and the genome
[2] = system: His-QsvR (Vibrio parahaemolyticus RIMD2210633); experiment: EMSA; settings: 10 mM Tris-HCl pH 7.5, 50 mM NaCl, 1 mM MgCl2, 0.5 mM EDTA, 0.5 mM DTT, 100 ng DNA in 10 ul, room temperature 20 min; recombinant protein; residues 1-267; protein details: 6xHis (pET28a); probe letters rebuilt from the primers and the genome
[3] = QsvR titration, no competition between proteins

Sequence	binding result [1]	binding result [2]	binding result [1, 3]
AACGACACTCTGAGCATCATTCGTCTAAGTGTAACAAAGCATAATGTTGTACTTATCTCGAATGTCAATTCGCTACTTACTTCGATATTGACGGGTTAGTGTTAGTTATGGCTGGGTGATCCTTCATTACACCAGTACGCTCTAGTTAAAATCACTAAAACCGCCTGCAAATAAATTGTCTTTTCAATGAGACGCATTCTTTAGAACTTGGTAAAATCCCATAGGAAACTATTTACATGCTGATTGTTTTTTAACTAAAATGACAAATGGTATGTTCTAAACAGACCAAACATCGATGTTTTAAAATCTGAAATACAAGGATTAATAATGAAGAACACAGCTCTAGCTATTCTTATGGCTCTAAGCGCATCAACTGCATTCGCAGCTGAAGAAGCAGGTTCTGCTGGTGCAGCATCTGCATCTGCAACAGGTACAACTGCAGTAGCAGTAGGTGCAGCAGCAGCAGTAACTGTAGTAGCAGTTGCAGCG (double strand) [vp0218 regulatory fragment]	binds	binds	–
ATGGCATCACGACCTGTCTCGACATGGAAAATGTCGTAAGGCTCATCTTTCACATATTGCTTATAAAGTATGGCTAATGAGGTAGAGTCTTCTACCAGTAACACCCTTGGTCTCATAGTCCTATCCCAACTTAATCTGATTCATTGTTATGATTCTGCTAGCTCACTTGGAGATTAATGAGAAAGAAAAAATAGATAAGCATCCTCAAGTCGCTAGAAGATTCTCAATTTGAGAAAAGTTATAGTTAAGTATTAGCACAGGGCAGGGATATTGCGAAAATTCTTTACTTTTTAATTGATTAAGCGCGGAATGAATTTTAAAAGATGAAGACCAAATCGCACTTGAATAAGTGCGATGGTTCATATGGTTTTGCGGGTTTTCTTCTTGTTACTCAAAACCTTGAGCCTTGCGCAGGTTGAGCGCTTCAAACGAACGTTCAGCTAGTAAAGGCAATGCCGCACACAGCTCCAATGCTTGTTGGGTTTTACCTTCGACACAATGTTTCTCGATGCTTCTGGCTTGACGAGATAATGGGCGATTGCCTAATGCCAGTGCAGAACTGCCGAGTGTATGGACTTCAAACTCGAGTTTTTCTAGGTCATGTTCACCCAACGCCCGCTCAATTTTTTGCATCCGTTCACGAGACTCTT (double strand) [scvE upstream fragment]	binds	–	–
TAGCACGCTTGTGTTGGACTTCTCGCGAGCGATACGCACGTTGTACTTTGCTTGATACGGAAAGCGTTTTATCCCCTACTTCGATATCGATAGGTTCTTCGACGGGTTTGAATACGCACTGCTGAGCAGAAAGTGATTGATCAACCCAAACGAATTTCACGCCACTTGCGCGAAGCTTTTTAATGCCTTCTGCGCTCGAAACTCGACCAGCATTGGCTAAATTGACTCGTTTGTTATGCTCTATCGCGGTAACAAACATGCCGACAGCAACATCTGCGATTGCAATTTTAATTGAGTCTTCTGGGTTGTACTGCATATGGTGACATTTATTAAATACTATTAGGTAACGCGTGCATTATAAAAGATATCGCGCATAGCTGTTATAAGAATCCTCAATTCATTTCAATTAATGAGTATTCAGTCAATTAATAGAGCGATTTACTTCATAAAACCATTTTATTTTTATGGACTTAGCTCAAGAAATGACAGCATTATTAACTAATTTTAATAATTTGAGGAATGCATCAATAACTATTTCATATAAACACGATTTACTGTTGACTAAGTTTTATAAATATCGATGATCAGCAAGTTAAACTGAACGAAGTTTTATTCATTTGAAAGCGCAAGAACATGACTGTCTACTATTTTAAATTAGCATTTGTATCTTAATAATGCGCATGATTACTTCATTTCCCTG (double strand) [scrG upstream fragment]	–	binds	binds
CCAGCCATAACTAACACTAACCCGTCAATATCGAAGTAAGTAGCGAATTGACATTCGAGATAAGTACAACATTATGCTTTGTTACACTTAGACGAATGATGCTCAGAGTGTCGTTGCTCTCAAAAACAAGAATGCCTATTCTCAAACGTTAGAGTGAGCCCCCTTGCCGTTTTGCGCTAATCCATGCATAATTTGCCAGCTTTTATGCTGTGCTTATCAAGTATGATTTTTTGATTTTCTTGTCACAAAAGCGACGCTTGAAAAAAGCACCTATATCAATAAGCCGAGCAGCTCGGTAATCAGCGAACAGTGGCTACGCGTAATGCCGCAGGGCGGTAGCGTGAAAACGCACAAGCAAACAGACTAAAGAGTTAACAGACATTCACTGCGTGCGTCATTCATGTGCAGCGGTCAGTCAATACCCAAGGAACACTTACGTGATGAACAAACGACCATTGCTAGGGGCGTTGAGTGCAATCAGCTTAGGCTTGTGCTCATTT (double strand) [vp0219 regulatory fragment]	binds	binds	–
GATACTATCGCTGAATACGCAGAAACCGGAGTCGATTACATTTCGGTAGGCGCACTAACTAAGCATCTAAAAGCGATGGATCTTTCGATGCGCTTCAAATAACACAAGCAACAAAATTCATATTACTTCAACTAACTCAGTAAGTTGTAAGTAATTCATCATTAAAAAGGGCCACTAGGCCCTTTCTTTTTATCCATTAAAAAATAGCATTACTCGCAAAACTCTGCATACGATATGCAACTTTCTACCAAAGAGTTTTACCTCACTCGAGACCCCATCTCTTCCCCATTTTCAACCTTTATGAAGTCTCCATAATCCTTCGCTAATGCAAGGGCATTATTTATTTCATTAAGAAGGAAAGAAAATGAAACACAGTAAACAGAAAAAACAACAGGGTTTCACTCTGATTG (double strand) [pilA upstream fragment]	–	binds	binds
CTTCCCTGTAAATAAGTCATCCGTTAGACCATCAAGAAATTAAACCTTAGTTTTTATAATCAAACTCGCTTCTTAATACTTTTCCTCATCCCTGCTTAGCAAGTACCAGCTTTTTCCTAAACAGCAAAACTTAGCCAAAGGTCTAAATTTCATTCTTATTTCCACTTACCTAAACAACACGAATTTTTAAACTTACCTTCGAATTTATGCGTTACAGAAATTCAGAAACATTCATAGAAATGTCTCTGCTCATCAATTAAAACGTTCGCGACACGGCTATTGGGCAATCACCCCAATGGCGGTAGCGTGCTAGAAGGGAAACTAGGTCATGAAACACAAAGGACTAATTCGTTCTTATGAGATGGAGTTCGCTT (double strand) [cpsA upstream fragment]	binds	–	–
TGTTCAGCGTTATCACCAAGCGTGGTTAGTGCAAGGTGAGCCCAATCATATGGAAATGGATGGTTTTCAACTCACCATGACTGAAGGGGGATTGGTGTCGCCGTTCACACAACAAGGCGTACTCGATTGCGGATATTGGTTAGCTGTTCATTACCCGCAACGTAAGATTATGGCTAGTGAGTTATTAGATATTAGCGGAACAATCAAAAGTAATCGTTATATCTGCAACTATACTTATGAAAGTGGCCAAACAATTGTAGTTATGTCTACCGCTAATCGACTGATAATAGACGTCGAAATGTCGGCGGAGTGATTTTTTTGACACTTAAGTACTATAAATGGGAATGAAAGTCGGTATAATGCAAACATTACCATAAGCCTAAGGTTGTAATAAAAGGTAAACCATAAAATGATTACCTTTGTTATCAAACCTTTTCGGAATAATGGCGATTCGTCATTCTGCTCAAGCGGTAGATACAGTATCCACTTCACGGTCAGTTTTAGTGAACGTTGCTGCTCCAAACCGTTTTGACAATATCCAAAATGGTCGCGTGACCTAAACGAAACCTTGCAGTCACACTGCATGCTTACATAGAGAGAGTAAACAATGAAAAGACAAGGTGGTTTCACCCTTATCGAACTAGTAGTGGTTATTGTAATCCTAGGTATTTTAGCGGTAACTGCAGCACCACGTTTCCTTAACCTACAATCAGATGCTCGTGAATCTGCGCTTCAAGGCCTAAAAGGTGCGATTGATGGTGCTTCTGGTAT (double strand) [mshA1 upstream fragment]	–	binds	binds
